Laboratory results published in article PMC10729948.

Molecular target: QseB phosphorylated (QseB-P) (UniProt B7UIT0)
Assay: EMSA
Details: acetyl phosphate-phosphorylated, complete shift at 3 ug protein, 20 fmol DNA; […] (printed '0. 1') […]; binding buffer, pH and temperature not stated; recombinant protein; protein details: His6 (pNIC28-Bsa4); label: 5' biotin on both strands

“ATTTACGTCTAATATTAGTTTCTTAAGGTTAAGTTAATATTCTATCCTTAAAATTTTGCT (double strand) [arn promoter QseB site, biotinylated]”: binds.

Construct, isoform or probe ends are uncertain for at least one entry.
